# Experimental data published in PMC11676875, “In Vitro Screening of an In-House Library of Structurally Distinct Chemotypes Towards the Identification of Novel SARS-CoV-2 Inhibitors” (Pharmaceuticals, 2024).
# Some compounds may have been tested in ways that are not shown here.
# Test system: SARS-CoV-2
row,SMILES,IC50
1,CN(C)CCn1c(Cn2nnc3ccccc32)nc2cc(Cl)ccc21,> 60 µM
2,Cc1ccc2c(c1)nc(Cn1nnc3ccccc31)n2CCN(C)C,> 20 µM
